Anti-infective test results gathered from many reports (values: NIAID ChemDB through PubChem).

ICn: concentration for n% inhibition.

compound | kind | agent | strain or isolate | cell line | target | read-out | tested at | value
NC(=O)c1c[se]c([C@@H]2O[C@H](CO)[C@@H](O)[C@H]2O)n1 | culture | Venezuelan equine encephalitis virus | Trinidad donkey | VERO | - | EC50 | - | 6.7 µg/mL
CCOc1cc([C@@H](C)NC(=O)c2ccc3c(c2)nc(-c2ccco2)n3C2CCCCC2)ccc1OC | target | Poliovirus | - | - | RNA-dependent RNA polymerase | IC50 | - | >25 µM
NC(=O)c1ncn([C@@H]2O[C@H](CO)[C@@H](O)[C@H]2O)n1 | culture | Hantaan virus | HVL7990 | VERO E6 | - | EC50 | - | 16 µg/mL
O=C(O)CNc1ccc(C[C@H](NC(=O)c2ccc3c(c2)nc(-c2ccoc2)n3C2CCCCC2)C(=O)O)cc1 | target | Poliovirus | - | - | RNA-dependent RNA polymerase | IC50 | - | >25 µM
Nc1ccn(C[C@H]2COP(=O)(O)CO2)c(=O)n1 | culture | Variola virus | Isolate JEE | VERO | - | EC50 | - | 7 µg/mL
O=C(NC(Cc1ccc2cc(O)ccc2c1)C(=O)O)c1ccc2c(c1)nc(-c1ccoc1)n2C1CCCCC1 | target | Poliovirus | - | - | RNA-dependent RNA polymerase | IC50 | - | >25 µM
CC(=O)NC(C(=O)NC(C)CCc1ccccc1)[C@H]1CC(C(=O)O)C[C@@H]1N=C(N)N | target | Influenza A virus (H6N2) | - | - | Neuraminidase | IC50 | - | 0.23 µM
O=c1cnn([C@@H]2O[C@H](CO)[C@@H](O)[C@H]2O)c(=O)[nH]1 | culture | Cowpox virus | - | VERO 76 | - | EC50 | - | 6.9 µM
CCCCC(C)NC(=O)C(NC(C)=O)[C@H]1CC(C(=O)O)C[C@@H]1N=C(N)N | target | Influenza A virus (H6N2) | - | - | Neuraminidase | IC50 | - | 8.7 µM
Nc1ccn(C[C@H]2COP(=O)(O)CO2)c(=O)n1 | culture | Camelpox virus | - | 3T3 | - | EC50 | - | 6.3 µM
O=C(N[C@@H](Cc1c[nH]c2ccc(O)cc12)C(=O)NCCN1CCOCC1)c1ccc2c(c1)nc(-c1ccoc1)n2C1CCCCC1 | target | Poliovirus | - | - | RNA-dependent RNA polymerase | IC50 | - | >25 µM
CCCCCCCCCCCCCCCCCC(=O)OC[C@@H](COP(=O)(O)OCCNCCO[C@@]1(C(=O)O)O[C@@H]([C@H](O)[C@H](O)CO)[C@H](NC(C)=O)[C@@H](O)[C@H]1F)OC(=O)CCCCCCCCCCCCCCCCC | target | Influenza A virus | H9N2 A/DUCK/HK/86/76 | - | Sialidase | IC50 | - | 125 µM
COc1ccc(C(NC(=O)c2ccc3c(c2)nc(-c2ccoc2)n3C2CCCCC2)C(=O)O)cc1OC | target | Poliovirus | - | - | RNA-dependent RNA polymerase | IC50 | - | >25 µM
CCCCCCCCCCCCCCCCCC(=O)OC[C@@H](COP(=O)(O)OCCNCCO[C@@]1(C(=O)O)O[C@@H]([C@H](O)[C@H](O)CO)[C@H](NC(C)=O)[C@@H](O)[C@H]1F)OC(=O)CCCCCCCCCCCCCCCCC | target | Influenza A virus | H3N2 A/DUCK/24/5/76 | - | Sialidase | IC50 | - | 180 µM
Nc1ncnc2c1ncn2C[C@@H](CO)OCP(=O)(O)O | culture | Variola virus | Isolate Bangladesh | LLC-MK2 | - | EC50 | - | 6.1 µg/mL
CCCN(CCC)C(=O)C(NC(C)=O)[C@H]1CC(C(=O)O)C[C@@H]1N=C(N)N | target | Influenza A virus (H6N2) | - | - | Neuraminidase | IC50 | - | 0.06 µM
CCCCCCCCCCCCC/C=C/[C@@H](O)[C@H](CO[C@@H]1O[C@H](CO)[C@H](O)[C@H](OS(=O)(=O)O)[C@H]1O)NC(=O)CCCCCCCCCCCCCCCCCCCCCCC | target | Influenza A virus | H2N2 A/JAPAN/305/57 | - | Sialidase | inhibition | 200 µM | 9.4%
O=C(O)CCC(=O)NC1CCC(NC(=O)c2ccc3c(c2)nc(-c2ccoc2)n3C2CCCCC2)CC1 | target | Poliovirus | - | - | RNA-dependent RNA polymerase | IC50 | - | >25 µM
CCCCNC(=O)C(NC(C)=O)[C@H]1CC(C(=O)O)C[C@@H]1N=C(N)N | target | Influenza A virus (H6N2) | - | - | Neuraminidase | IC50 | - | 9.9 µM
Nc1ccn(C[C@@H](CO)OCP(=O)(O)O)c(=O)n1 | culture | Variola virus | Isolate Butler | VERO | - | EC50 | - | 6 µg/mL
NC(=O)[C@H](Cc1c[nH]c2ccc(Nc3c(O)c(=O)c3=O)cc12)NC(=O)c1ccc2c(c1)nc(-c1ccoc1)n2C1CCCCC1 | target | Poliovirus | - | - | RNA-dependent RNA polymerase | IC50 | - | >25 µM

A second listing of 2 rows from above:

compound	kind	agent	strain or isolate	cell line	target	read-out	tested at	value
CCOc1cc([C@@H](C)NC(=O)c2ccc3c(c2)nc(-c2ccco2)n3C2CCCCC2)ccc1OC	target	Poliovirus	-	-	RNA-dependent RNA polymerase	IC50	-	>25 µM
Nc1ccn(C[C@@H](CO)OCP(=O)(O)O)c(=O)n1	culture	Variola virus	Isolate Butler	VERO	-	EC50	-	6 µg/mL

Inhibition is in % at the dose shown (toxicity tests: loss of growth or viability). Blank or dashed fields: not listed here. ECn: concentration that inhibits the pathogen or its effect by n%. Rows are shuffled and stem from different studies.